Anti-infective test results gathered from many reports (values: NIAID ChemDB through PubChem).

Shared fields: tests in culture; agent: HIV-1; read by: syncytia; read-out: fold resistance

Lines come from different laboratories, so protocols vary.

smiles	changes	strain or isolate	cell line	value
CCC(CC)COC(=O)c1cc(NC(=S)OC(C)C)ccc1Cl	RT-Y181C		CEM	83.2
COc1ccc(NC(=S)C2=C(C)OCCS2)cc1OCC=C(Cl)Cl	RT-K103N	TIBO R82913-resistant (RT K103N)	CEM	9.26
CC(C)OC(=S)Nc1ccc(Cl)c(C(=O)OCC2CC2)c1	RT-V106A		CEM	67.5
CCOC(=O)c1cc(NC(=O)C2=C(CC)OCCS2)ccc1Cl	RT-L100I	TIBO-resistant (RT L100I)	CEM	11.4
CCC(CC)OC(=O)c1cc(NC(=S)OC(C)C)ccc1Cl	RT-V106A		CEM	100
COc1ccc(NC(=O)c2ccoc2C)cc1OCC=C(Cl)Cl	RT-Y188H	HEPT-resistant (RT Y188H)	CEM	40
C=C(C)[C@@H]1CC[C@]2(C(=O)NCCCCCCCC(=O)N[C@@H](CC(C)C)[C@@H](O)CC(=O)O)CC[C@]3(C)[C@H](CC[C@@H]4[C@@]5(C)CC[C@H](O)C(C)(C)[C@@H]5CC[C@]43C)[C@@H]12	GP41-K90R	LAI	HeLa P4 + HeLa	~1
CCc1c(Sc2ccccc2)n(COCc2ccccc2)c(=O)[nH]c1=O	RT-E138K	IIIB	CEM	30
CC1=C(C(=O)Nc2ccc(Cl)c(OCC=C(Cl)Cl)c2)SCCO1	RT-Y188H	HEPT-resistant (RT Y188H)	CEM	1.67
CC1=C(C(=O)Nc2ccc(Cl)c(C(=O)OC3CCCCC3C)c2)SCCO1	RT-E138K	TSAO-resistant (RT E138K)	CEM	7.5
CC(C)OC(=O)c1cc(NC(=S)SC(C)C)ccc1Cl	RT-L100I		CEM	>1.54
CC1=C(C(=O)Nc2ccc(Cl)c(C(=O)OC3CCCCC3)c2)SCCO1	RT-Y181C	PYR-resistant (RT Y181C)	CEM	12.5
Cc1occc1C(=O)Nc1ccc(Cl)c(SCC=C(Cl)Cl)c1	RT-K103N	TIBO R82913-resistant (RT K103N)	CEM	21.5
CC(C)c1c(Sc2ccccc2)n(COCCO)c(=O)[nH]c1=O	RT-E138K	IIIB	CEM	8.93
O=S(=O)(Cc1ccccc1I)c1cccc[n+]1[O-]	RT-Y181C	IIIB	CEM	2.5
CCOC(=O)c1cc(NC(=S)OC(C)C)ccc1Cl	RT-E138K		CEM	25.1
Cc1ccc(C)c(CS(=O)(=O)c2cccc[n+]2[O-])c1	RT-E138K	IIIB	CEM	2.26
COCC1=C(C(=O)Nc2ccc(Cl)c(C(=O)OC(C)C)c2)SCCO1	RT-V106A	Nevirapine-resistant (RT V106A)	CEM	14.3
C=C(C)COc1cc(NC(=S)OC(C)C)ccc1Cl	RT-V106A		CEM	44.5
C=C(Cl)COc1cc(NC(=S)c2ccsc2C)ccc1C#N	RT-V106A	Nevirapine-resistant isolate (RT V106A)	CEM	6.67
COC(=O)Oc1ccc(NC(=O)C2=C(C)OCCS2)cc1C(=O)OC(C)C	RT-E138K	TSAO-resistant (RT E138K)	CEM	>14.3
Cc1occc1C(=O)Nc1ccc(Cl)c(/C=N/N2CCCC2)c1	RT-K103N	R82913-resistant (RT K103N)	CEM	<6.15
CCc1c(Sc2cc(C)cc(C)c2)n(COCCO)c(=O)[nH]c1=O	RT-Y181I	IIIB	CEM	467
CC(C)OC(=S)Nc1ccc(Cl)c(C(=O)OCC(F)(F)F)c1	RT-Y181C		CEM	>28.6
CC1=C(C(=O)Nc2ccc(C)c(C(=O)OC(C)C)c2)SCCO1	RT-E138K	TSAO-resistant (RT E138K)	CEM	18.9
C=CCSc1cc(NC(=S)OC(C)C)ccc1Cl	RT-V106A		CEM	12.5
C=C(Cl)COc1cc(NC(=S)c2ccoc2C)ccc1Cl	RT-V106A	Nevirapine-resistant isolate (RT V106A)	CEM	10.9
CC1=C(C(=O)Nc2ccc(F)c(C(=O)OC(C)C)c2)SCCO1	RT-L100I	TIBO-resistant (RT L100I)	CEM	>28.6
C/C=C\COc1cc(NC(=S)OC(C)C)ccc1OC	RT-L100I		CEM	75
Cc1cc(C)c(CS(=O)c2cccc[n+]2[O-])c(C)c1	RT-K103N	IIIB	CEM	4.58
CC(C)OC(=O)c1cc(NC(=S)OC(C)(C)C)ccc1Cl	RT-Y181C		CEM	10.8
CCOCn1c(Cc2cc(C)cc(C)c2)c(CC)c(=O)[nH]c1=O	RT-Y181C	IIIB	CEM	40
COCCOC(=S)Nc1ccc(Cl)c(C(=O)OC(C)C)c1	RT-E138K		CEM	31.6
CC(C)OC(=O)c1cc(NC(=S)OC(C)C)ccc1Cl	RT-V179D	IIIB	CEM	11.4
C=CCOc1cc(NC(=S)OC(C)C)ccc1C#N	RT-V106A		CEM	7.99
CCC(=O)Oc1ccc(NC(=O)C2=C(C)OCCS2)cc1C(=O)OC(C)C	RT-L100I	TIBO-resistant (RT L100I)	CEM	>2.22
Cc1occc1C(=S)Nc1ccc(Cl)c(/C=N/OC(C)(C)C)c1	RT-Y181C	IIIB	CEM	1.5
CC(C)OC(=O)c1cc(NC(=S)OC(C)C)ccc1Cl	RT-Y181C	IIIB	CEM	66
Cc1cc(C)cc(Cc2c(C(C)C)c(=O)[nH]c(=O)n2COCCO)c1	Nevirapine resistant (RT Y181C)	IIIB	CEM	16.5
CSc1ccc(NC(=S)OC(C)C)cc1C(=O)OC(C)C	RT-E138K		CEM	18.3
Cc1sccc1C(=S)Nc1ccc(Cl)c(OCC=C(Cl)Cl)c1	RT-E138K	TSAO-m3T-resistant (RT E138K)	CEM	10.7
CCCCOC(=O)c1cc(NC(=S)OC(C)C)ccc1Cl	RT-L100I		CEM	15
CC1=C(C(=O)Nc2ccc(Cl)c(C(=O)OC(C)C)c2)SCCO1	RT-E138K	IIIB	CEM	>1500

For reference, 5 entries again:

smiles,changes,strain or isolate,cell line,value
CC1=C(C(=O)Nc2ccc(F)c(C(=O)OC(C)C)c2)SCCO1,RT-L100I,TIBO-resistant (RT L100I),CEM,>28.6
C=C(C)[C@@H]1CC[C@]2(C(=O)NCCCCCCCC(=O)N[C@@H](CC(C)C)[C@@H](O)CC(=O)O)CC[C@]3(C)[C@H](CC[C@@H]4[C@@]5(C)CC[C@H](O)C(C)(C)[C@@H]5CC[C@]43C)[C@@H]12,GP41-K90R,LAI,HeLa P4 + HeLa,~1
CC1=C(C(=O)Nc2ccc(C)c(C(=O)OC(C)C)c2)SCCO1,RT-E138K,TSAO-resistant (RT E138K),CEM,18.9
O=S(=O)(Cc1ccccc1I)c1cccc[n+]1[O-],RT-Y181C,IIIB,CEM,2.5
CC1=C(C(=O)Nc2ccc(Cl)c(OCC=C(Cl)Cl)c2)SCCO1,RT-Y188H,HEPT-resistant (RT Y188H),CEM,1.67

Blank or dashed fields: not listed here. Fold resistance has wild type as its base.